Experimental data: PMC6163981, “Novel and Selective Rhipicephalus microplus Triosephosphate Isomerase Inhibitors with Acaricidal Activity” (Veterinary Sciences, 2018)
Marks after values point to notes of the source that are not given here.

The chains behind the UniProt entries cited, without tags or fusion partners. Residues count along the entry.
UniProt P00939, 2-249 limits assumed: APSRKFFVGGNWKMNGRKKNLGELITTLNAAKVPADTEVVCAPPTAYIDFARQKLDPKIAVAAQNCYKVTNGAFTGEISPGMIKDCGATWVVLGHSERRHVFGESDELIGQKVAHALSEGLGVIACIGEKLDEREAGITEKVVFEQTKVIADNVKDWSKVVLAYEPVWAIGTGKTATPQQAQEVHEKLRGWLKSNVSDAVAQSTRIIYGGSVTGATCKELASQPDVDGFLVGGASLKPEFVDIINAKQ

Tests used:
[1] = tested on: Rhipicephalus microplus partially engorged female ticks; assay: Injection of inhibitor into partially engorged females during artificial capillary feeding
[2] = tested on: Rhipicephalus microplus fully engorged females; assay: Adults immersion test; details: for Eclosion Rate / Eggs Total Weight: immersion; for Total Oviposition: immersion five minutes, ticks that completed oviposition/total
human cells = details: cited from earlier work
[3] = Solubility in the conditions of the immersion test; details: aqueous solutions
[4] = tested on: mammalian TIMs (rabbit and human); assay: Mammalian TIM inhibition (rabbit and human, summarised); type: biochemical; details: 100 µM
Rabbit TIM (RbTIM) = Rabbit TIM (RbTIM) (Oryctolagus cuniculus, UniProt P00939); assay: Rabbit TIM inhibition (selectivity); type: biochemical
murine cells = details: 100 µM; cited from earlier work

Q: Which survival [1] does the source give for `O=[N+]([O-])c1cccc2no[n+]([O-])c12` here?
A: The survival was 0%.

Q: And the “Eclosion Rate” value ([2]; 500 ppm)?
A: Its value is 51% *.

Q: And the “Eggs Total Weight” value ([2]; 500 ppm)?
A: The value was 113 ± 47 mg.

Q: What about the “Total Oviposition” value ([2]; 500 ppm) of the same molecule?
A: Its value is 15/15.

Q: What about the “Eclosion Rate” value ([2]; 2000 ppm) of the same molecule?
A: Its value is 51% *.

Q: What about the “Eggs Total Weight” value ([2]; 2000 ppm) of the same molecule?
A: The value was 123 ± 35 mg.

Q: And the “Total Oviposition” value ([2]; 2000 ppm)?
A: The value was 13/15.

Q: What about the “toxicity for human cells” value (human cells) of the same molecule?
A: Its value is “low toxicity”.

Q: And the “solubility in immersion test conditions” value [3]?
A: The value was “low soluble”.

Q: And the “Mammalian Triosephosphate isomerase inhibition” value [4]?
A: The value was “did not affect”.

Q: What about the “% Inhibition at 100 µM RbTIM” value (Rabbit TIM (RbTIM)) of the same molecule?
A: Its value is 0%.

Q: And the “toxic effects on murine cells” value (murine cells)?
A: The value was “no toxic effects”.
